In this experiment the test system is Legionella pneumophila. Put plainly: Anti-infective activity against Legionella pneumophila harboring GFP in Acanthamoeba castellanii assessed as inhibition of bacterial replication at 30 uM by spectrophotometric method relative to vehicle control.

`Cc1ccc(/C=C2\SC(=S)N([C@@H](Cc3c[nH]c4ccccc34)C(=O)O)C2=O)c2ccccc12`: the inhibition (INH) amounted to 89%.

The values above are taken from ChEMBL document CHEMBL3861953 (J Med Chem, 2016).
